Pooled drug test results. Numbers come from NIAID ChemDB, via PubChem.

All rows: tests in culture; organism: HIV-1

Rows are shuffled and stem from different studies. ECn is the concentration giving n% inhibition of infection, replication or growth. Blank or dashed fields: not listed here.

compound	method	cells	strain or isolate	read-out	conditions	changes	value
Cc1ccc(/C=C/C(=O)c2ccc(NC(=O)c3ccccc3Nc3cccc(C)c3C)cc2)cc1	MTT / absorbance	MT-4	IIIB	EC50			>76.9 µM
CC(C)(C)OC(=O)N1[C@H](CO)CC(F)(F)[C@@H]1n1cc(F)c(=O)[nH]c1=O	RT activity	PBMC	LAI	EC90			90.8 µM
Cc1cccc(Nc2ccccc2C(=O)Nc2ccc(C(=O)/C=C/c3ccc(Br)cc3)cc2)c1C	MTT / absorbance	MT-4	IIIB	EC50			>12.68 µM
C=CCOc1cccc(Cc2[nH]c(=O)c(CC)c(O)c2CC)c1	cytopathic effect / MTT	MT-4	RT-K103N Y181C Mutant NNRTI-resistant	EC50			>20 µM
Cc1ccc(C(=O)OCc2nc3ccccc3nc2C)cc1O	RT activity	PBMC	89BZ167	EC50			27.3 µM
COc1cc(O)c2c(c1O)C1O[C@]3(C)C[C@H]1[C@@H](CO3)C2=O	luciferase	SupT1		EC50	pseudotyped		11.6 µg/mL
O=C(O)c1cc(-n2cccc2)ccc1Cl	p24	PBMC + MT-2	RU570 R5 CLADE G	EC90			105 µM
COc1cc(O)c2c(c1O)C(=O)c1cc(C)ncc1C2=O	luciferase	SupT1		EC50	pseudotyped		9.4 µg/mL
Cc1cccc(Nc2ccccc2C(=O)Nc2ccc(-c3cc(-c4ccccc4)nc(=S)[nH]3)cc2)c1C	MTT / absorbance	MT-4	IIIB	EC50			>13.9 µM
O=C(O)C(=O)/C=C(\O)c1cccn1Cc1ccc(F)cc1	syncytia	PBMC	BaL	EC50			0.0137 µM
O=C(O)/C=C\c1ccc(O)c(O)c1/C(=C/c1ccc(O)c(O)c1)C(=O)O	MTT	MT-4	IIIB	EC50			>6.4 µM
C=CCOc1cccc(Cc2nc(SCC(C)C)nc(OCC(C)C)c2CC)c1	cytopathic effect / MTT	MT-4	RT-K103N Y181C Mutant NNRTI-resistant	EC50			>100 µM
Cc1nc2ccccc2nc1COC(=O)c1ccc(O)cc1	RT activity	PBMC	BaL	EC90			>100 µM
COc1cc(/C=C/c2nc(NC(=O)Nc3ccccc3)c3ccccc3n2)cc(OC)c1OC	MTT	MT-4	IIIB	EC50			>1.69 µg/mL
C=CCCc1cccc(Cc2c(CC)c(=O)n(COCC)c(=O)n2COCC)c1	cytopathic effect / MTT	MT-4	IIIB	EC50			>45 µM
CC(C)(C)OC(=O)N1[C@H](CO)CC(F)(F)[C@H]1n1cnc2ncnc(Cl)c21		PBMC	LAI	EC90			>100 µM
C=CCOc1cccc(Cc2c(CC)c(=O)n(COCC)c(=O)n2COCC)c1	cytopathic effect / MTT	MT-4	RT-Y181C Mutant NNRTI-resistant	EC50			>20 µM
Cc1cn([C@@H]2CO[C@H](CO)[C@H]2CO)c(=O)[nH]c1=O	cytopathic effect / XTT	CEM + CEM-SS	RF	EC50			0.8 µM
Cc1ccnc2c1NC(=O)c1cccnc1N2C1CC1	MTT	MT-4	IIIB	EC50			0.00965 µg/mL
Cc1cccc(Nc2ccccc2C(=O)Nc2ccc(C(=O)/C=C/c3ccc(Cl)cc3)cc2)c1C	MTT / absorbance	MT-4	IIIB	EC50			>2.17 µM
CC(C)(C)OC(=O)N1[C@H](CO)CC(F)(F)[C@@H]1n1ccc(=O)[nH]c1=O		PBMC	LAI	EC90			>100 µM
COC1=CC(=O)c2c(O)c(C)c3c(c2C1=O)OC(C)C3	luciferase	SupT1		EC50	pseudotyped		26.8 µg/mL
COc1cc(/C=C/c2nc(NC(=S)Nc3ccc([N+](=O)[O-])cc3)c3ccccc3n2)cc(OC)c1OC	MTT	MT-4	IIIB	EC50			>3.87 µg/mL
COc1ccc(C(=O)OCc2nc3ccccc3nc2C)c(OC)c1OC	RT activity	PBMC	89BZ167	EC90			>100 µM
Cc1c(-c2c(C)c3c(c(C)c2[C@H](OC(C)(C)C)C(=O)O)CN(C(=O)N2CCOC[C@@H]2C)C3)cc(F)c2c1CCCO2	luciferase	MT-4	IIIB	EC50			0.036 µM
COc1ccc(NC(=O)C2=C(C)OCCS2)cc1OCC=C(Cl)Cl	syncytia	CEM	TIBO R82150-resistant (RT L100I)	EC50		RT-L100I	10 µg/mL
C=CCOCn1c(Cc2cccc(OCC=C)c2)c(CC)c(=O)[nH]c1=O	cytopathic effect / MTT	MT-4	RT-K103N Y181C Mutant NNRTI-resistant	EC50			>44 µM
COc1cc(OC)c(C(=O)OCc2nc3ccccc3nc2C)cc1OC	RT activity	PBMC	89BZ167	EC50			>100 µM
COc1ccccc1NC(=S)Nc1nc(/C=C/c2cc(OC)c(OC)c(OC)c2)nc2ccccc12	MTT	MT-4	IIIB	EC50			>3.42 µg/mL
C=CCOc1cccc(Cc2[nH]c(=S)[nH]c(=O)c2CC)c1	cytopathic effect / MTT	MT-4	IIIB	EC50			>20 µM
COc1cccc(OC)c1C(=O)OCc1nc2ccccc2nc1C	RT activity	PBMC	BaL	EC90			>100 µM
Cc1ccc(-c2c(C)c3c(c(C)c2C(OC(C)(C)C)C(=O)O)CN(C(=O)c2nccn2C)C3)cc1	luciferase	MT-4	IIIB	EC50			0.94 µM
COc1cc(/C=C/c2nc(NC(=O)Nc3ccc([N+](=O)[O-])cc3)c3ccccc3n2)cc(OC)c1OC	MTT	MT-4	IIIB	EC50			>1.72 µg/mL
Cc1sccc1C(=S)Nc1ccc(Cl)c(OCC=C(Cl)Cl)c1	syncytia	CEM	TIBO R82913-resistant (RT K103N)	EC50		RT-K103N	0.4 µg/mL
COc1cc(/C=C/c2nc(NC(=S)Nc3cccc([N+](=O)[O-])c3)c3ccccc3n2)cc(OC)c1OC	MTT	MT-4	IIIB	EC50			>3.07 µg/mL
Cc1cn([C@H]2C[C@H](N=[N+]=[N-])[C@@H](CO)O2)c(=O)[nH]c1=O	p24 / ELISA	MT-4	89.6	EC50			0.00122 µM
CC(C)(C)OC(=O)N1[C@H](CO)CC(F)(F)[C@H]1n1cc(F)c(=O)[nH]c1=O		PBMC	LAI	EC90			75.6 µM
CCOCn1c(Cc2cccc(CCC3CO3)c2)c(CC)c(=O)[nH]c1=O	cytopathic effect / MTT	MT-4	IIIB	EC50			9 µM
Cc1occc1C(=O)Nc1ccc(Cl)c(SCC=C(Cl)Cl)c1	syncytia	CEM	IIIB	EC50			0.093 µg/mL
CC(C)(C)OC(=O)N1[C@H](CO)CC(F)(F)[C@H]1n1cnc2c(Cl)ncnc21		PBMC	LAI	EC90			>100 µM
Nc1ccn([C@@H]2S[C@H](CO)C=C2F)c(=O)n1	RT activity	PBMC	RT-M184V	EC50			<125 µM
Cc1sccc1C(=O)Nc1ccc(Cl)c(OCC=C(Cl)Cl)c1	syncytia	CEM	TSAO-m3T-resistant (RT E138K)	EC50		RT-E138K	0.95 µg/mL
C=CCCc1cccc(Cc2c(CC)c(=O)[nH]c(=O)n2COCC)c1	cytopathic effect / MTT	MT-4	RT-Y181C Mutant NNRTI-resistant	EC50			2 µM
COc1cc(OC)cc(C(=O)OCc2nc3ccccc3nc2C)c1	RT activity	PBMC	89BZ167	EC90			>100 µM
Cc1nnc(C(=O)NC(C)(C)c2nc(C(=O)NCc3ccc(F)cc3)c(O)c(=O)n2C)o1	syncytia	PBMC	BaL	EC50			0.001 µM

For reference, 4 entries again:

compound,method,cells,strain or isolate,read-out,conditions,changes,value
COc1ccccc1NC(=S)Nc1nc(/C=C/c2cc(OC)c(OC)c(OC)c2)nc2ccccc12,MTT,MT-4,IIIB,EC50,,,>3.42 µg/mL
COC1=CC(=O)c2c(O)c(C)c3c(c2C1=O)OC(C)C3,luciferase,SupT1,,EC50,pseudotyped,,26.8 µg/mL
Cc1cccc(Nc2ccccc2C(=O)Nc2ccc(C(=O)/C=C/c3ccc(Cl)cc3)cc2)c1C,MTT / absorbance,MT-4,IIIB,EC50,,,>2.17 µM
Cc1sccc1C(=S)Nc1ccc(Cl)c(OCC=C(Cl)Cl)c1,syncytia,CEM,TIBO R82913-resistant (RT K103N),EC50,,RT-K103N,0.4 µg/mL